Measured values from several laboratories, pooled; numbers as filed in NIAID ChemDB.

Common to all: whole-cell or culture tests; organism: Varicella zoster virus; read-out: EC50

a–b is a range or a potency band. Blank or dashed fields: not listed here. Rows are shuffled and stem from different studies. ECn is the concentration giving n% inhibition of infection, replication or growth.

smiles,strain,cell line,method,value
CC(=O)c1c(-c2ccc(Cl)c(Cl)c2)cc2ccccn12,G-31,MRC-5,plaque count,10 µM
CC1(C)[C@H](CCO)C[C@@H]1n1cnc2c(Cl)ncnc21,YS/R (TK-),,plaque count,>50 µg/mL
Nc1ncnc2c1ncn2C[C@@H](CO)OCP(=O)(O)O,Oka PFA-resistant/A,HEL,cytopathic effect,0.148 µM
Nc1nc(F)nc2c1ncn2[C@@H]1C=C(CO)[C@@H](O)[C@H]1O,07/1 YS/R (TK-),HeLa,cytopathic effect,100 µg/mL
O=c1[nH]c(=O)n([C@H]2C[C@H](O)[C@@H](CO)O2)cc1I,KANNO,HEF,plaque count,1.1 µg/mL
O=C(O)/C=C/c1cn([C@@H]2O[C@H](CO)[C@@H](O)[C@@H]2O)c(=S)[nH]c1=O,HOSEN (TK+),MRC-5,plaque count,90.6 µM
Nc1nc2c(ncn2COC(CO)CO)c(=O)[nH]1,Oka penciclovir-resistant/B,HEL,cytopathic effect,0.63 µM
O=c1[nH]c(=O)n([C@H]2C[C@H](O)[C@@H](CO)O2)cc1/C=C/Br,OKA,HEF,plaque count,0.0016 µg/mL
CCc1cn([C@H]2C[C@H](O)[C@@H](CO)O2)c(=S)nc1N,HOSEN (TK+),MRC-5,plaque count,>288.6 µM
CC(=O)c1c(-c2ccccc2)cc2ccccn12,G-31,MRC-5,plaque count,>40 µM
C=Cc1cn([C@@H]2O[C@H](CO)[C@@H](O)[C@@H]2O)c(=O)[nH]c1=O,Kawaguchi acyclovir-resistant mutant A7,,plaque count,0.0625 µg/mL
CCCc1cn([C@H]2C[C@H](O)[C@@H](CO)O2)c(=S)[nH]c1=O,HOSEN (TK+),MRC-5,plaque count,2.2 µM
Cn1cc(C(=O)NCc2ccc(Cl)cc2)c(=O)c2cc(CN3CCOCC3)ccc21,NA varicella isolate,HFF,plaque count,0.1 µM
O=c1[nH]c(=S)n([C@@H]2O[C@H](CO)[C@@H](O)[C@@H]2O)cc1/C=C/Br,CAQU (TK+),MRC-5,plaque count,3.8 µM
O=C(O)CP(=O)(O)O,Oka CF1603-resistant,HEL,cytopathic effect,42.4 µM
Brc1ccc2cc(-c3ccccc3)cn2c1,G-31,MRC-5,plaque count,12–50 µM
Nc1ccn(C[C@@H](CO)OCP(=O)(O)O)c(=O)n1,Oka CF1368-resistant,HEL,cytopathic effect,0.06 µM
Nc1nc(=S)n([C@@H]2O[C@H](CO)[C@@H](O)[C@@H]2O)cc1CO,Kanno-Kohmura (TK-),MRC-5,plaque count,>253.5 µM
O=c1[nH]c(=O)n([C@H]2C[C@H](O)[C@@H](CO)O2)cc1C(F)(F)F,VEX411,HEF,cytopathic effect,1 µg/mL
CCCc1cn([C@H]2C[C@H](O)[C@@H](CO)O2)c(=S)nc1N,CAQU (TK+),MRC-5,plaque count,>277.4 µM
COc1ccc(OC)c(-c2cc3ccccn3c2)c1,G-31,MRC-5,plaque count,>40 µM
O=C(O)P(=O)(O)O,Oka CF1743-resistant,HEL,cytopathic effect,25.5 µM
c1ccc(-c2cc3ccccn3c2)cc1,G-31,MRC-5,plaque count,20 µM
O=c1[nH]c(=O)n([C@@H]2O[C@H](CO)[C@@H](O)[C@@H]2O)cc1/C=C/Br,Kawaguchi acyclovir-resistant mutant A7,,plaque count,0.000106 µg/mL
Fc1ccc2cc(-c3ccccc3)cn2c1,G-31,MRC-5,plaque count,>50 µM
O=c1[nH]c(=O)n([C@H]2C[C@H](O)[C@@H](CO)O2)cc1/C=C/I,Kanno-Kohmura (TK-),HEF,plaque count,≥56 µg/mL
O=C(NCc1ccc(Cl)cc1)c1c[nH]c2ccc(CCCO)cc2c1=O,MAG,,plaque count,0.1 µM
Nc1nc2c(ncn2COCCO)c(=O)[nH]1,07/1 (TK-),,plaque count,7.8 µg/mL
CC(O)c1cn([C@@H]2O[C@H](CO)[C@@H](O)[C@@H]2O)c(=S)[nH]c1=O,HOSEN (TK+),MRC-5,plaque count,>249.5 µM
CC1(C)[C@H](CCO)C[C@@H]1n1cnc2c(=O)[nH]cnc21,YS/R (TK-),,plaque count,>50 µg/mL
CC(NC(=S)Nc1ccc(NC(=O)c2ccccc2F)cc1)c1ccc(F)cc1,JAB1244,HFF,ELISA,0.59 µg/mL
Fc1cccn2cc(-c3ccccc3)cc12,G-31,MRC-5,plaque count,>40 µM
Nc1nc(=S)n([C@@H]2O[C@H](CO)[C@@H](O)[C@@H]2O)cc1/C=C/Br,HOSEN (TK+),MRC-5,plaque count,65.4 µM
CCCCCCCCc1cc2cn([C@H]3C[C@H](F)[C@@H](CO)O3)c(=O)nc2o1,OKA,,,>20 µM
Nc1nc(=O)n([C@H]2C[C@H](O)[C@@H](CO)O2)cc1I,VEX411,HEF,cytopathic effect,0.4 µg/mL

A second listing of 3 rows from above:

{"smiles": "CC(O)c1cn([C@@H]2O[C@H](CO)[C@@H](O)[C@@H]2O)c(=S)[nH]c1=O", "strain": "HOSEN (TK+)", "cell line": "MRC-5", "method": "plaque count", "value": ">249.5 µM"}
{"smiles": "Nc1ccn(C[C@@H](CO)OCP(=O)(O)O)c(=O)n1", "strain": "Oka CF1368-resistant", "cell line": "HEL", "method": "cytopathic effect", "value": "0.06 µM"}
{"smiles": "O=c1[nH]c(=O)n([C@H]2C[C@H](O)[C@@H](CO)O2)cc1/C=C/I", "strain": "Kanno-Kohmura (TK-)", "cell line": "HEF", "method": "plaque count", "value": "≥56 µg/mL"}